Results of unrelated studies side by side (data: NIAID ChemDB).

Common to all: toxicity to cultured cells; cell line: CEM; endpoint: CC50

Lines come from different laboratories, so protocols vary. CCn: concentration that lowers growth or viability of the cells by n%.

compound	result
CCOC(=O)c1ccc(NC(=O)c2ccccc2SSc2ccccc2C(=O)Nc2ccc(C(=O)OCC)cc2)cc1	64 µM
Cc1cc(C)cc(Sc2c(C(C)C)c(=O)[nH]c(=O)n2CCC2CCCC2)c1	16.6 µM
Cc1ccc(C)c(C(C)S(=O)(=O)c2c(C)ccc[n+]2[O-])c1	36 µg/mL
CCc1c(C(=O)c2cc(C)cc(C)c2)n(CC2CCCCC2)c(=O)[nH]c1=O	>1080 µM
Nc1ncnc2c1ccn2[C@@H]1C[C@H](O)[C@@H](O)[C@H]1O	>500 µg/mL
COc1cc2ccnc3c2c(c1OCCCCCCCCCOc1c(OC)cc2ccnc4c2c1N(C)C=C4)N(C)C=C3	<1 µM
O=c1[nH]c(=O)n([C@H]2C=C[C@@H](OCP(=O)(O)O)O2)cc1Cl	>100 µg/mL
NS(=O)(=O)c1ccc(CNC(=O)c2ccccc2SSc2ccccc2C(=O)NCc2ccc(S(N)(=O)=O)cc2)cc1	30 µM
CCOCn1c(Cc2cc(C)cc(C)c2)c(CC)c(=O)[nH]c1=O	88.6 µM
CCc1cn([C@H]2C=C[C@@H](OCP(=O)(O)O)O2)c(=O)nc1N	>100 µg/mL
CCc1c(C(=O)c2cc(C)cc(C)c2)n(CC2CC=CC2)c(=O)[nH]c1=O	>1130 µM
O=C(Nc1cccc(-c2nc3cc(C(=O)Nc4ccc(S(=O)(=O)O)c5cc(S(=O)(=O)O)cc(S(=O)(=O)O)c45)ccc3[nH]2)c1)Nc1cccc(-c2nc3cc(C(=O)Nc4ccc(S(=O)(=O)O)c5cc(S(=O)(=O)O)cc(S(=O)(=O)O)c45)ccc3[nH]2)c1	64.8 µM
CC(C)CCCCCOP(=O)(COCCn1cnc2c(Cl)nc(N)nc21)OCCCCCC(C)C	>4 µg/mL
COC(=O)[C@H](Cc1ccccc1)NC(=O)[C@H]1/C(=C/CO)O[C@@H]2CC(=O)N21	>100 µg/mL
Nc1nc2c(nc(Br)n2CCOCP(=O)(O)O)c(=O)[nH]1	>0.16 µg/mL
O=c1oc2cc(Cc3ccccc3)ccc2n1CCN1CCOCC1	14 µg/mL
CCO[C@]12CS(=O)(=O)O[C@@]13[C@@H](CN2)O[C@@H](n1cc(C)c(=O)[nH]c1=O)[C@@H]3OC(C)=O	>250 µM
Cc1cc(C)cc(Sc2c(C(C)C)c(=O)[nH]c(=S)n2COCCO)c1	66.8 µM
COc1cc(Br)c(/C=N/N=C(\N)NO)cc1OC.Cc1ccc(S(=O)(=O)O)cc1	16 µg/mL
Cc1cn([C@@H]2O[C@@H]3CN[C@@]4(OCC5CCOC5)CS(=O)(=O)O[C@@]34[C@H]2O[Si](C)(C)C(C)(C)C)c(=O)[nH]c1=O	72 µM
COc1ccc(/C=N/N=C(\N)NO)c(OC)c1C.Cc1ccc(S(=O)(=O)O)cc1	40 µg/mL
O=[N+]([O-])c1ccc[n+]([O-])c1SCc1ccccc1	30 µg/mL
Clc1ccc(C2ON=C(c3ccccc3)N2C23CC4CC(CC(C4)C2)C3)cc1	>200 µM
CCCCCCCN1C=Cc2nccc3cc(OC)c(OC)c1c23	3.8 µM
CN(C)c1cccc(C(=O)c2ccc3[nH]c(=O)oc3c2)c1	28 µg/mL
CC(=O)OCC1OC(SC2C(OC(C)=O)OC(COC(C)=O)C(OC(C)=O)C2OC(C)=O)C(OC(C)=O)C(OC(C)=O)C1OC(C)=O	>100 µg/mL
Nc1ncnc2c1ccn2CCOCP(=O)(O)O	>2.5 µg/mL
O=c1[nH]c(=O)n([C@H]2C=C[C@@H](OCP(=O)(O)O)O2)cc1I	>100 µg/mL
COc1cc2cc[n+](C)c3c2c(c1OC)NC=C3	60.3 µM
Cc1cn([C@@H]2O[C@@H]3CN[C@@]4(OCC(C)(C)C)CS(=O)(=O)O[C@@]34[C@H]2O[Si](C)(C)C(C)(C)C)c(=O)[nH]c1=O	21.5 µM
O=C(c1cccc(Cl)c1)c1ccc2c(c1)sc(=O)n2Cc1ccccc1	4 µg/mL
O=C(Nc1ccc(Br)cc1)c1ccccc1SSc1ccccc1C(=O)Nc1ccc(Br)cc1	40 µM
CCOCn1c(Sc2cc(C)cc(C)c2)c(CC)c(=O)[nH]c1=O	>100 µM
COc1cccc(C2ON=C(c3ccccc3)N2C23CC4CC(CC(C4)C2)C3)c1	55 µM
CCCCCCCCS(=O)(=O)Oc1c(OC)cc2ccnc3c2c1N(C)C=C3	1.3 µM
Cc1cccc(C2ON=C(c3ccccc3)N2C23CC4CC(CC(C4)C2)C3)c1	48 µM
CC(C)C[C@@H](CO)NC(=O)c1ccccc1SSc1ccccc1C(=O)N[C@H](CO)CC(C)C	12 µM
Cc1cn([C@@H]2O[C@@H]3CN[C@@]4(OCCOc5ccccc5)CS(=O)(=O)O[C@@]34[C@H]2O)c(=O)[nH]c1=O	>250 µM
CCCCCCC[n+]1ccc2cc(OC)c(OC)c3c2c1C=CN3	3.5 µM
Cc1cn([C@@H]2OC(O[Si](C)(C)C(C)(C)C)C3(OS(=O)(=O)C=C3NCCC(=O)OCc3ccccc3)C2O[Si](C)(C)C(C)(C)C)c(=O)n(C)c1=O	>250 µM
O=c1ccn(C[C@H]2C[C@H]2[C@H](O)CO)c(=O)[nH]1	>100 µM
COc1ccc(C)cc1CS(=O)(=O)c1cccc[n+]1[O-]	70 µg/mL
COc1cc(/C=N/N=C(\N)NO)c([N+](=O)[O-])cc1OC	18 µg/mL
Cc1cn([C@@H]2OC3COC4(O)CS(=O)(=O)OC34C2O)c(=O)[nH]c1=O	>100 µM
CC(=O)Nc1ccc(SSc2ccc(NC(C)=O)cc2C(N)=O)c(C(N)=O)c1	>120 µM
Cc1ccc(C)c(C(Cl)S(=O)(=O)c2cc(C)cc[n+]2[O-])c1	>4 µg/mL
S=C(Cc1ccccn1)NCc1ccccc1Cl	21.1 µM
CC(C)CCCCCOP(=O)(COCCn1cnc2nc(N)nc(Cl)c21)OCCCCCC(C)C	>4 µg/mL
CCCCCCCCCN1C=Cc2nccc3cc(OC)c(OC)c1c23	1.2 µM
CCc1c(C(=O)c2cc(C)cc(C)c2)n(CCC2CCCC2)c(=O)[nH]c1=O	18.7 µM
CC(C)c1c(Sc2ccccc2)n(COCc2ccccc2)c(=O)[nH]c1=O	>100 µM
Cc1cn([C@@H]2O[C@@H]3CN[C@H]4CS(=O)(=O)O[C@]43[C@H]2O[Si](C)(C)C(C)(C)C)c(=O)[nH]c1=O	>125 µM
Nc1nc2c(ncn2C[C@H]2C[C@H]2[C@H](O)CO)c(=O)[nH]1	>100 µM
Cc1ccc(C(C)S(=O)(=O)c2c(C)ccc[n+]2[O-])c(C)c1	>100 µg/mL
Nc1nc(=O)n([C@H]2C=C[C@@H](OCP(=O)(O)O)O2)cc1I	>100 µg/mL
Cn1c(=O)sc2cc(C(=O)c3cccc(F)c3)ccc21	>200 µg/mL
Cc1cn(C[C@H]2C[C@H]2[C@H](O)CO)c(=O)[nH]c1=O	>100 µM
CC(C)NS(=O)(=O)c1ccc(NC(=O)c2ccccc2SSc2ccccc2C(=O)Nc2ccc(S(=O)(=O)NC(C)C)cc2)cc1	38 µM
Cc1cn([C@@H]2O[C@@H]3CN[C@@]4(OCCO)CS(=O)(=O)O[C@@]34[C@H]2O)c(=O)[nH]c1=O	>250 µM
FC(F)(F)c1ccc(C2ON=C(c3ccccc3)N2C23CC4CC(CC(C4)C2)C3)cc1	>200 µM
Nc1ncnc2c1ncn2C[C@H]1C[C@H]1CO	>100 µM
N#Cc1ccc(NC(=O)c2ccccc2SSc2ccccc2C(=O)Nc2ccc(C#N)cc2)cc1	30 µM
C=CCO[C@]12CS(=O)(=O)O[C@@]13[C@@H](CN2)O[C@@H](n1cc(C)c(=O)[nH]c1=O)[C@@H]3O[Si](C)(C)C(C)(C)C	57.8 µM
COc1cc2ccnc3c2c(c1OS(C)(=O)=O)N(C)C=C3	7.3 µM
S=C(CCCc1ccccc1)Nc1ccc(Cl)cn1	46.7 µM
Cc1cccc(C)c1C(=O)N1CCC(C)(N2CCC(Nc3ccc(Br)cc3)CC2)CC1	67 µM
C[N+](C)(C)C.C[N+](C)(C)C.C[N+](C)(C)C.C[N+](C)(C)C.O=S(=O)([O-])c1cc(N=Nc2cc(S(=O)(=O)[O-])c3cccnc3c2O)ccc1/C=C/c1ccc(N=Nc2cc(S(=O)(=O)[O-])c3cccnc3c2O)cc1S(=O)(=O)[O-]	>240 µM
Cc1cc(C)cc(C(=O)c2c(C(C)C)c(=O)[nH]c(=O)n2CC2CC2)c1	>1170 µM
Cc1ccc(S(=O)(=O)O)cc1.N/C(=N\N=C\c1ccc(O)c(O)c1)NO	43 µg/mL
Brc1cccc(C2ON=C(c3ccccc3)N2C23CC4CC(CC(C4)C2)C3)c1	>200 µM
CC(C)CCCCCOP(=O)(COCCn1cnc2c(=O)[nH]c(N)nc21)OCCCCCC(C)C	>4 µg/mL
CCOCn1c(Sc2ccccc2)c(CC)c(=O)[nH]c1=O	77.4 µM

Again, the opening 7 rows:

| compound | result |
|---|---|
| CCOC(=O)c1ccc(NC(=O)c2ccccc2SSc2ccccc2C(=O)Nc2ccc(C(=O)OCC)cc2)cc1 | 64 µM |
| Cc1cc(C)cc(Sc2c(C(C)C)c(=O)[nH]c(=O)n2CCC2CCCC2)c1 | 16.6 µM |
| Cc1ccc(C)c(C(C)S(=O)(=O)c2c(C)ccc[n+]2[O-])c1 | 36 µg/mL |
| CCc1c(C(=O)c2cc(C)cc(C)c2)n(CC2CCCCC2)c(=O)[nH]c1=O | >1080 µM |
| Nc1ncnc2c1ccn2[C@@H]1C[C@H](O)[C@@H](O)[C@H]1O | >500 µg/mL |
| COc1cc2ccnc3c2c(c1OCCCCCCCCCOc1c(OC)cc2ccnc4c2c1N(C)C=C4)N(C)C=C3 | <1 µM |
| O=c1[nH]c(=O)n([C@H]2C=C[C@@H](OCP(=O)(O)O)O2)cc1Cl | >100 µg/mL |